Results of unrelated studies side by side (data: NIAID ChemDB).

All rows: target-level tests; organism: HIV-1; target: Protease; endpoint: IC50

Neighbouring rows are from separate reports. ICn is the concentration giving n% inhibition. An empty or dashed field is not shown.

SMILES | read by | value
CC(=O)OC1OC(Oc2c(-c3ccc(O)cc3)oc3cc(OC4O[C@@H](O)[C@H](O)[C@H](O)[C@H]4O)cc(O)c3c2=O)[C@H](O)[C@@H](O)[C@H]1OC(C)=O | HPLC | 100.1 µM
C[C@H](CCC(=O)O)[C@H]1CC[C@H]2[C@@H]3CC[C@@H]4C[C@H](O)CC[C@]4(C)[C@H]3CC[C@]12C | absorbance | 10 µM
CC(C)(C)OC(=O)N[C@@H](Cc1ccccc1)C(=O)NC(CO)NC(=O)[C@@H](Cc1ccccc1)NC(=O)OC(C)(C)C | substrate cleavage | >10 µM
CC[C@H](CC[C@@H](C)C1CCCC2C3CC=C4C[C@@H](O)CC[C@]4(C)C3CC[C@@]21C)C(C)C | HPLC | >300 µM
O=C(N[C@@H](Cc1ccccc1)C(=O)NCC[C@@H](CO)NC(=O)[C@H](Cc1ccccc1)NC(=O)OCC1c2ccccc2-c2ccccc21)OCC1c2ccccc2-c2ccccc21 | HPLC | 0.16 µM
O=Cc1ccc(OCC(=O)N[C@@H](Cc2ccccc2)C[C@H](O)[C@H](Cc2ccccc2)NC(=O)COc2ccc(C=O)cc2)cc1 | fluorescence | 19 µM
CC[C@@H](C)[C@H](NC(=O)[C@@H]1CCCN1C(=O)[C@@H](O)[C@H](CC1CCCCC1)NC(=O)[C@H](CS(C)(=O)=O)NC(=O)CCc1ccccc1)C(=O)N[C@H](C(N)=O)C(C)C |  | <5 µM
C[C@H]1[C@H](C)CC[C@]2(CO)CC[C@]3(C)C(=CC[C@@H]4[C@@]5(C)CC[C@H](O)C(C)(C)[C@@H]5CC[C@]43C)[C@H]12 | absorbance | 3.5 µM
O=C(O)/C=C/c1ccc(O)cc1 |  | >100 µM
CC[C@@H](C)[C@H](NC(=O)[C@@H]1CCCN1C(=O)[C@@H](O)[C@H](Cc1ccccc1)NC(=O)[C@H](CC(N)=O)NC(=O)OC(C)(C)C)C(=O)NCC(C)C |  | >5 µM
C=C(C)[C@@H]1CC[C@]2(C(=O)O)CC[C@]3(C)[C@H](CC[C@@H]4[C@@]5(C)CC[C@H](O)C(C)(C)[C@@H]5CC[C@]43C)[C@@H]12 |  | 9 µM
O=C(N[C@@H](Cc1ccccc1)C(=O)NCC[C@@H](CO)NC(=O)[C@H](Cc1ccccc1)NC(=O)c1cc2ccccc2o1)c1cc2ccccc2o1 | HPLC | 3 µM
O=C(CCc1ccc(O)cc1)c1c(O)cc(O)cc1O[C@@H]1O[C@H](CO)[C@@H](O)[C@H](O)[C@H]1O |  | >100 µM
CC(CNC(=O)[C@@H]1CSCN1C(=O)[C@@H](O)[C@H](Cc1ccccc1)NC(=O)[C@H](CS(C)(=O)=O)NC(=O)COc1cccc2ccccc12)C(N)=O |  | ~0.05 µM
C=C(C)[C@H]1CC[C@]2(C)[C@H]3CC[C@@H]4[C@@]5(C)C[C@H](OC(C)=O)C[C@@](C)(C(=O)O)[C@@H]5CC[C@@]4(C)[C@]3(C)CC[C@@H]12 | HPLC | 44.5 µM
CCCCCCCCCCCCCC(=O)N[C@@H](Cc1ccccc1)C(=O)O | HPLC | 44 µM
CC(C)[C@H](NC(=O)[C@H](CCCN=C(N)N)NC(=O)N[C@@H](Cc1ccccc1)C(=O)O)C(=O)N[C@@H](C=O)Cc1ccccc1 | HPLC | 18.3 µM
CC(=O)c1ccc(OCC(=O)N[C@@H](Cc2ccccc2)C[C@H](O)[C@H](Cc2ccccc2)NC(=O)COc2ccc(C(C)=O)cc2)cc1 | fluorescence | 68 µM
CC[C@H](C)[C@H](NC(=O)[C@@H]1CCCN1C(=O)[C@@H](O)[C@H](Cc1ccccc1)NC(=O)[C@H](CO)NC(=O)Cc1ccccc1)C(=O)N[C@H](C(N)=O)C(C)C |  | <5 µM
CCCCCCCCCCCCCC(=O)N[C@@H](Cc1ccccc1)Oc1ccc([S+](C)C)cc1.COS(=O)(=O)[O-] | HPLC | 240 µM
C=C(C)[C@@H]1CC[C@]2(C(=O)O)CC[C@]3(C)[C@H](CC[C@@H]4[C@@]5(C)CC[C@H](OC(=O)CCCC(=O)O)C(C)(C)[C@@H]5CC[C@]43C)[C@@H]12 |  | 4 µM
CC[C@@H](C)[C@H](NC(=O)[C@@H]1CCCN1C(=O)[C@@H](O)[C@H](CC1CCCCC1)NC(=O)[C@H](CC(N)=O)NC(=O)CCc1ccccc1)C(=O)N[C@H](C(N)=O)C(C)C |  | <5 µM
CC(C)(C)OC(=O)N[C@@H](Cc1ccccc1)C(=O)NCC[C@@H](CO)NC(=O)[C@H](Cc1ccccc1)NC(=O)OC(C)(C)C | HPLC | 4.1 µM
CCCCCCCC/C=C/CCCCCCCC(=O)OC1CC[C@@]2(C)C(=CCC3C4CCC([C@H](C)CC[C@H](CC)C(C)C)[C@@]4(C)CCC32)C1 |  | >100 µM
Cc1cccc(C)c1OCC(=O)N[C@@H](Cc1ccccc1)C[C@@H](O)[C@H](Cc1ccccc1)NC(=O)[C@H](NC(=O)c1cc(=O)c2ccccc2[nH]1)C(C)C | fluorescence | 0.003 µM
O=C(N[C@@H](Cc1ccccc1)C(=O)NC(CCO)NC(=O)[C@H](Cc1ccccc1)NC(=O)OCC1c2ccccc2-c2ccccc21)OCC1c2ccccc2-c2ccccc21 | substrate cleavage | 8.5 µM
CC1(C)CC[C@]2(C(=O)O)CC[C@]3(C)C(=CCC4[C@@]5(C)CC[C@H](OC(=O)C(=O)O)C(C)(C)C5CC[C@]43C)C2C1 |  | 20 µM
CC(C)(C)NC(=O)[C@H]1C[C@@H](O)CCN1C(=O)[C@@H](O)[C@H](Cc1ccccc1)NC(=O)[C@H](CC(N)=O)NC(=O)OCc1ccccc1 |  | >5 µM
C/C=C/c1ccc(OC2OC(CO)C(O)C(O)C2O)c(OC)c1 |  | >100 µM
CC(C)(C)NC(=O)[C@@H]1CSCN1C(=O)[C@@H](O)[C@H](Cc1ccccc1)NC(=O)[C@H](CS(C)(=O)=O)NC(=O)c1ccccc1-c1ccccc1 |  | <5 µM
O=C(N[C@@H](Cc1ccccc1)C(=O)NC(CO)NC(=O)[C@H](Cc1ccccc1)NC(=O)OCC1c2ccccc2-c2ccccc21)OCC1c2ccccc2-c2ccccc21 | substrate cleavage | 0.44 µM
CC(C)(C)OC(=O)N[C@@H](Cc1ccccc1)C(=O)NCC[C@H](NC(=O)[C@H](Cc1ccccc1)NC(=O)OC(C)(C)C)C(=O)O | HPLC | >10 µM
CC1(C)CC[C@]2(C(=O)O)CC[C@]3(C)C(=CCC4[C@@]5(C)CC[C@H](OC(=O)CCC(=O)O)C(C)(C)C5CC[C@]43C)C2C1 |  | 4 µM
C[C@H](CCC(=O)O)[C@H]1CC[C@H]2[C@@H]3CC[C@@H]4C[C@H](O)CC[C@]4(C)[C@H]3C[C@H](O)[C@]12C | absorbance | 80 µM
Cc1cccc(C)c1OCC(=O)N[C@@H](Cc1ccccc1)C[C@@H](O)[C@H](Cc1ccccc1)NC(=O)[C@H](NC(=O)c1cc(=O)c2ccccc2[nH]1)[C@H](C)O | fluorescence | 0.004 µM
CC1(C)CC[C@]2(C)CC[C@]3(C)C(=CC[C@@H]4[C@@]5(C)CC[C@H](O)C(C)(C)[C@@H]5CC[C@]43C)[C@@H]2C1 |  | >100 µM